The source of these data is patent US20240067634A1, “INHIBITORS OF NEF DOWNMODULATION” (priority 2020, published 2024).

For the experiment, the target named is HIV-1 Nef (Human immunodeficiency virus 1, UniProt P03406). The experiment in a line: Anti-Nef activity: reversal of Nef-dependent MHC-I HLA-A2 downmodulation, flow cytometry. The class given is cell-based. The method, then: Determination of anti-Nef activity: To identify molecules with enhanced Nef inhibition, decreased toxicity and decreased inhibition of lysosomes, the analogs of the disclosure are screened initially for Nef inhibitory activity using a high throughput assay in HIV-1 infected CEM-A2 cells. These cells are infected with an HIV-1 reporter construct for 48 hours and then exposed to potential inhibitors for 24 hours. Cells are harvested and stained for flow cytometric analysis of HLA-A2 surface expression, and the fold downmodulation of HLA-A2 are calculated by comparing expression on uninfected cells to that on infected cells.
PBMCs is isolated from leukopaks, CD8-depleted, and stimulated with PHA.
To assess their toxicity, an MTT assay was used, which measures […] dehydrogenase activity. Metabolically active cells reduce MTT to MTT-formazan leading to a color change. For this analysis, PHA-activated primary human PBMCs were exposed to a range of concentrations of each drug continuously for 72 hours of culture.
Broadly, the IC50 is the concentration at which inhibition is half-maximal. In the case of 19-Deoxy-21-Methoxy Baf A1, the IC50 came out at 20.1 nM.
With 19-Deoxy-20-ene Baf A1 the figure was 147 nM; with 19-Deoxy-21-allylester Baf A1, 56 nM.
